Experimental data taken from US12037363B2, “Peptides for Covid-19 prevention and treatment” (SOTIRA COVID, LLC, priority 2020, dated 2024).

System: SARS-CoV2 in VERO E6 cells
Assay: dual immunostaining of ACIS peptide and S-glycoprotein in infected VERO cells
Format: cell-based
Settings: two hours of viral incubation
Method: Further confirming the profound activity of KEPTIDE COVIDs in the attenuation of viral infection, a dual immunostaining analyses with ACIS peptide (green) and S-glycoprotein (red) was performed. DAPI staining was carried out to identify big nuclei of VERO cells. […] The result was further corroborated with a quantification study that clearly indicated a strong inhibition of viral load around ACIS-treated VERO cells (***p<0.0001) (FIG. 6B).
In order to evaluate the efficacy of the KEPTIDE COVID in suppressing the secondary or chronic infection of SARS-COV2, testing was performed by dual immunostaining procedure after six hours of viral infection. […] The effect was further confirmed with a quantitative analysis (FIG. 7B).
Double Immunocytochemistry analyses was performed where […] VERO Cells were plated per well in 8-well chamber slide. Cells were starved with serum-free DMEM media for 30 mins followed by the treatment with 25 μM FITC-labeled KEPTIDE COVID. After another 30 mins, unbound KEPTIDE COVIDs were aspirated and then added SARS-CoV2 at a dose of 1-2 PFU/cell. After 2 and 6 hours of virus treatment, viral cells were removed, VERO cells were fixed with 8% PFA and kept at 4° C. for overnight. […]

CC(C)[C@H](NC(=O)CNC(=O)[C@H](CC(N)=O)NC(=O)[C@@H](NC(=O)[C@@H]1CCCN1C(=O)[C@H](CCC(N)=O)NC(=O)[C@@H](N)Cc1ccccc1)[C@@H](C)O)C(=O)NCC(=O)N[C@@H](Cc1ccc(O)cc1)C(=O)N[C@@H](CCC(N)=O)C(=O)N1CCC[C@H]1C(=O)N[C@@H](Cc1ccc(O)cc1)C(=O)NCC(=O)O [ACIS peptide, FQPTNGVGYQPYG]
distribution of peptide on VERO cells: perfectly aligned on the membrane of VERO cells
